Tested on: C30 anti-STp monoclonal antibody
Assay: Competitive ST ELISA with the C30 mAb
Type: binding
Conditions: read-out: IC50, competitive C30 mAb ELISA after denaturation and refolding of STh; STh denatured with 10 mM DTT, 56 °C, 1 h; refolding in GSH/GSSG buffer (0.6/0.4 mM) 1 h room temperature, with or without DsbC or BSA; three independent ELISAs; Figure 3A

With `CC(C)C[C@H](NC(=O)[C@H](CCC(=O)O)NC(=O)[C@H](CS)NC(=O)[C@H](CS)NC(=O)[C@H](Cc1ccc(O)cc1)NC(=O)[C@H](CC(N)=O)NC(=O)[C@H](CO)NC(=O)[C@H](CO)NC(=O)[C@@H](N)CC(N)=O)C(=O)N[C@@H](CS)C(=O)N[C@@H](CS)C(=O)N[C@@H](CC(N)=O)C(=O)N1CCC[C@H]1C(=O)N[C@@H](C)C(=O)N[C@@H](CS)C(=O)N[C@H](C(=O)NCC(=O)N[C@@H](CS)C(=O)N[C@@H](Cc1ccc(O)cc1)C(=O)O)[C@@H](C)O` the IC50 was 2.11 µM.

From publication PMC6071264 (Toxins, 2018)
